By IC50 is commonly meant the concentration needed to halve the response being measured. Lower therefore signals inhibition by little substance.

We go through 51 molecules from patent publication US20210363204A1.

Experiment [1] concerns the target human Nav1.7 (human), Q15858. As to the kind of experiment: cell-based or functional assay.
In experiment [2] the target is human Nav1.6, Q9UQD0. As to the kind of experiment: QPatch. The conditions noted are these: chains peptide; modification not given.
The target in experiment [3] is human Nav1.7 (sodium channel protein type 9 subunit alpha) (human), Q15858. As to the kind of experiment: cell-based or functional assay.
The target of experiment [4] is human Nav1.7, Q15858. As to the kind of experiment: QPatch. The conditions noted are these: chains peptide; modification not given. For orientation: In patch-clamp work, channel activity is measured electrically.

For GPSPGARAFAPAPAQCQKWMQTCDRERKCCEGFVCTLWCRKKLW (modifications not checked) [NV1G1961], in experiment [1], the Nav1.7 IC50, FLIPR Tetra membrane depolarization came out at 68 nM.
Take GPRCQKWMQTCDAERKCCEGFVCRLWCKKKLW [NV1D2772]: in experiment [2], the IC50 was determined as 242 nM.
Same read-out and setting: as for GPYCQKWMQTCDANRKCCEGFSCRLWCKKKLW [NV1D3586], the figure is 895 nM.
Turning to GPYCQKWMQTCDAERKCCEGFSCTLWCKKKLW (modifications not checked) [NV1G1862], the Nav1.7 IC50, FLIPR Tetra membrane depolarization in experiment [1] is 100 nM.
For GPSCQKWFWTCDAERKCCEGFVCRLWCKKKLW (modifications not checked) [Protoxin-II variant NV1D2889], the hNav1.7 TETRA IC50 in experiment [3] is 12.1 nM.
For the molecule GPQCQKWMQTCDAERKCCEGFSCTLWCKKKLW [NV1D2974-NH2], the IC50 in experiment [2] was 219 nM. This counts as sub-micromolar.
In experiment [2], GPQCQKWMQTCDAERKCCEGFVCRLWCKKKLW [NV1D2775-NH2] displayed an IC50 of 61.4 nM.
GPYCQKWFQTCDAERKCCEGLVCRLWCKKKLW (modifications not checked) [Protoxin-II variant NV1D2906] had a hNav1.7 TETRA IC50 in experiment [3] of 940 nM.
As to GPYCQKWMQTCDIERKCCEGMVCRLWCKKKLL (modifications not checked) [64053223], in experiment [1], the hNav1.7 QPatch % blk at 10 nM amounted to 33%.
In turn, GPYCQKWFQTCDAERKCCEGFVCRLWCKKKLW (modifications not checked) [Protoxin-II variant NV1D2905] returned a hNav1.7 TETRA IC50 in experiment [3] of 713 nM.
In turn, GPYCQKWMETCDSERKCCEGMVCRLWCKKKLW (modifications not checked) [NV1G2082] displayed a hNav1.7 TETRA IC50 in experiment [1] of 90.8 nM.
On the same count and under the same terms, as for GPYCQKWMYTCDSERKCCEGMVCRLWCKKKLW (modifications not checked) [NV1G2156], the figure is 90.5 nM.
In experiment [2], GPQCQKWMQTCDAERKCCEGFVCRLWCKKKLW [NV1D2775] had an IC50 of 236 nM. That is a sub-micromolar value.
The molecule GPSCQKWMQTCDAERKCCEGFVCRLWCKKKLW [NV1D2773] registered an IC50 in experiment [2] of 197 nM.
In the case of QCQKWMQTCDAERKCCEGFSCTLWCKKKLW [(-GP) N-Ac-NV1D2974-NH2], the half-inhibitory concentration (IC50) in experiment [2] came to 476 nM.

B1: NV1G1969 (peptide)
peptide: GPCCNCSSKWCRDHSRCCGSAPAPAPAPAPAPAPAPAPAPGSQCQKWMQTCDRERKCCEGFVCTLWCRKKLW
modifications: not checked
B1 registered a Nav1.7 IC50, FLIPR Tetra membrane depolarization in experiment [1] of 100 nM.
As to YCQKWMQTCDSERFCCEGMVCRLWCKKKLL (modifications not checked) [64053340], the hNav1.7 QPatch % blk at 10 nM in experiment [1] was 26.8%.
GPYCQKWMWTCDSERKCCEGMVCRLWCKKKLG (modifications not checked) [NV1G2329] registered a hNav1.7 TETRA IC50 in experiment [1] of 38 nM.
For the molecule GPYCQKWMWTCDSERKCCLGMVCRLWCKKKLW (modifications not checked) [NV1G1996], in experiment [1], the hNav1.7 QPatch % blk at 10 nM worked out at 76.9% and the hNav1.7 QPatch IC50 amounted to 0.5 nM.
Turning to GPYCQKWMQTCDSERFCCEGMVCRLWCKKKLL (modifications not checked) [64053236], in experiment [1], the hNav1.7 QPatch % blk at 10 nM came to 28%.
GPYCQKWMWTCDSERKCCIGMVCRLWCKKKLW (modifications not checked) [NV1G2094]: the hNav1.7 QPatch % blk at 30 nM in experiment [1] was 63.2%.
For GPYCQKWMWTCDSERKCCEGMVCRLWCKKKLV (modifications not checked) [NV1G2291], the hNav1.7 TETRA IC50 in experiment [1] is 63.3 nM.
As for GPYCQKWMQTCDSERKCCNGMVCRLWCKKKLL (modifications not checked) [64053210], the hNav1.7 QPatch % blk at 10 nM in experiment [1] is 41.7%.
Turning to GPYCQKWMWTCDSERKCCYGMVCRLWCKKKLW (modifications not checked) [NV1G2324], in experiment [1], the hNav1.7 QPatch % blk at 10 nM turned out to be 57.5%.
As for GPYCQKWMWTCDSERKCCEGMVCRLWCKKKLI (modifications not checked) [NV1G2129], the hNav1.7 QPatch % blk at 10 nM in experiment [1] was -6.5%.
On to GPACQKWMQTCDRNRKCCEGFVCTLWCRKKLW [NV1D3541], for which the results for the IC50 in experiment [2] and in experiment [4] were 1750 nM and 26.9 nM, respectively.
For the molecule GPQCQKWMQTCDRERKCCEGFVCTLWCRKKLW [NV1D3034], in experiment [2], the IC50 is 569 nM. This counts as sub-micromolar.
In the case of GPQCQAWMQTCDRERKCCEGFVCTLWCRKKLW (modifications not checked) [NV1G1771], the Nav1.7 IC50, FLIPR Tetra membrane depolarization in experiment [1] was 70.6 nM.
Turning to GPACQKWMQTCDRNRKCCEGFSCTLWCRKKLW (modifications not checked) [NV1G1867], the Nav1.7 IC50, FLIPR Tetra membrane depolarization in experiment [1] amounted to 76 nM.
In experiment [1], GPQCQEWMQTCDRERKCCRGFVCTLWCRKKLW (modifications not checked) [NV1G1843] had a Nav1.7 IC50, FLIPR Tetra membrane depolarization of 95.9 nM.
Turning to GPQCQKWMQSCDRERKCCEGFVCTLWCRKKLW [NV1D3359], the IC50 in experiment [2] came to 486 nM. That is a sub-micromolar value.
The molecule GPQCQEWMQTCDRERKCCKGFVCTLWCRKKLW (modifications not checked) [NV1G1846] came in with a Nav1.7 IC50, FLIPR Tetra membrane depolarization in experiment [1] of 68.6 nM.
In the case of GPQCQKWMQTCDRERKCCEGFVCTLWCRKKLW [NV1D3034-NH-butyl], the IC50 in experiment [2] came to 502 nM.
Take GPQCQKWMQTCDRERKCCEGFVCTLWCRKSLW (modifications not checked) [NV1G1850]: the Nav1.7 IC50, FLIPR Tetra membrane depolarization in experiment [1] is 102 nM.
As for GPQCQKWMQTCDRERKCCEGFVCTLWCRKKLD (modifications not checked) [NV1G1793], in experiment [1], the Nav1.7 IC50, FLIPR Tetra membrane depolarization was 80.9 nM.
As for GPQCQKWMQTCKRKEKCCEGFVCTLWCRKKLW (modifications not checked) [NV1G1844], the Nav1.7 IC50, FLIPR Tetra membrane depolarization in experiment [1] stood at 180 nM.
GPQCQKWMQTCDEERKCCEGFVCTLWCRKKLW (modifications not checked) [NV1G1922] showed a Nav1.7 IC50, FLIPR Tetra membrane depolarization in experiment [1] of 108 nM.
Molecule GPQCQDWMQTCDRERKCCEGFVCTLWCRKKLW (modifications not checked) [NV1G1778] had a Nav1.7 IC50, FLIPR Tetra membrane depolarization in experiment [1] of 109 nM.
The molecule GPQCQKWMQTCDRERKCCQGFVCTLWCRKKLW [NV1D3388] yielded an IC50 in experiment [2] of 1200 nM. In other words, the single-digit micromolar range.
On to GPQCQKWMQTCDRERKCCEGFVCTLWCRKKLW [NV1D3034-NH2], for which the half-maximal inhibitory concentration (IC50) in experiment [2] turned out to be 160 nM.
Molecule GPQCQKWMQTCDRERKCCERFVCTLWCRKKLW (modifications not checked) [NV1G1851] displayed a Nav1.7 IC50, FLIPR Tetra membrane depolarization in experiment [1] of 108 nM.
In experiment [2], GPQCQKWMQTCDRTRKCCEGFVCTLWCRKKLW [NV1D3368-NH2] had an IC50 of 862 nM.
The molecule GPQCQKWMQTCDRERKCCEGFVCTLWCRKKLW [NV1D3034-NH-methyl] showed an IC50 in experiment [2] of 563 nM. Compared with the last molecule, the IC50 is about 1.5-fold lower.
GPQCQKWMQTCDRERKCCEGFVCTLWCRKKLWAPAPAPAPAP (modifications not checked) [NV1G1699] came in with a Nav1.7 IC50, FLIPR Tetra membrane depolarization in experiment [1] of 169 nM.

B2: NV1G1707 (peptide)
peptide: GPQCQKWMQTCDRERKCCEGFVCTLWCRKKLWAPAPAPAPAPYGRKKRRQRRR
modifications: not checked
B2 returned a Nav1.7 IC50, FLIPR Tetra membrane depolarization in experiment [1] of 84.9 nM.
With GPQCQKWMQTCDRERKCCEGFVCTLWCRKKLWAPAPAPAPAPDGPWRKM (modifications not checked) [NV1G1693], the Nav1.7 IC50, FLIPR Tetra membrane depolarization in experiment [1] worked out at 116 nM.
As for GPRRRRRRRRRRRQCQKWMQTCDRERKCCEGFVCTLWCRKKLW (modifications not checked) [NV1G1981], the Nav1.7 IC50, FLIPR Tetra membrane depolarization in experiment [1] amounted to 102 nM.
In the case of GPSPGARAFAPAPAPAPAPQCQKWMQTCDRERKCCEGFVCTLWCRKKLW (modifications not checked) [NV1G1956], in experiment [1], the Nav1.7 IC50, FLIPR Tetra membrane depolarization stood at 88.1 nM.

B3: NV1G1952 (peptide)
peptide: GPRRRRRRRRRRRAPAPAPAPAPQCQKWMQTCDRERKCCEGFVCTLWCRKKLW
modifications: not checked
In turn, B3 displayed a Nav1.7 IC50, FLIPR Tetra membrane depolarization in experiment [1] of 139 nM.
With GPQRFVTGHFGGLYPANGQCQKWMQTCDRERKCCEGFVCTLWCRKKLW (modifications not checked) [NV1G1980], the Nav1.7 IC50, FLIPR Tetra membrane depolarization in experiment [1] was determined as 101 nM.

B4: NV1G1973 (peptide)
peptide: GPQRFVTGHFGGLYPANGAPAPAPAPAPQCQKWMQTCDRERKCCEGFVCTLWCRKKLW
modifications: not checked
With B4, the Nav1.7 IC50, FLIPR Tetra membrane depolarization in experiment [1] was 66.9 nM.
